The experiment addresses EGF receptor of S180 cells (mouse (endogenous in S180)) (UniProt Q01279). Description: flow cytometry on cells. In general terms: Flow cytometry measures light scatter and fluorescence of single cells or particles in a stream.

Take “LSS670-labeled EGF-SEA (from UniProt P0A0L2 25-257)”: the percent of S180 cells coated (125 pmol EGF-SEA) was found to be 95%.

The values are drawn from article PMC3032773, “Solid Tumor-Targeted Infiltrating Cytotoxic T Lymphocytes Retained by a Superantigen Fusion Protein” (2011).
